The structures appear in SMILES notation.

The subject of this data set is JC virus (JCV). To be noted: ratio CC50 / EC50.

As to `C[C@H](Cn1cnc2c(N)ncnc21)OCP(=O)(O)O` [TNV, reference compound], the SI50 was found to be 1. To `CCCCCCCCCCCCCCCCOCCCOP(=O)(O)OCC1=CC(O)C(n2ccc(=O)[nH]c2=O)O1` (centres unmarked) [AB23039] belongs 342; to `CCCCCCCCCCCCCCCCOCCCOP(=O)(O)OCC1=C[C@H](O)[C@H](n2cnc3c(=O)[nH]c(N)nc32)O1` [AB23040], 9. On to `CCCCCCCCCCCCCCCCOCCCOP(=O)(O)CO[C@H](CO)Cn1ccc(N)nc1=O` [BCV, Brincidofovir], for which the SI50 was found to be 12. In the case of `Nc1ccn(C[C@@H](CO)OCP(=O)(O)O)c(=O)n1` [CDV, Cidofovir, reference compound], the SI50 is listed as above 27.

Values taken from patent publication US12466849B2, “Anti-viral and anti-tumoral compounds” (YEDA RESEARCH AND DEVELOPMENT CO. LTD, priority 2020, dated 2025).
